Results published in PMC8550428 (2021).

Biological target: T1, GST-P58^IPK fusion protein (human (cDNA from HUVEC), UniProt Q13217 32-504)
T1 chain: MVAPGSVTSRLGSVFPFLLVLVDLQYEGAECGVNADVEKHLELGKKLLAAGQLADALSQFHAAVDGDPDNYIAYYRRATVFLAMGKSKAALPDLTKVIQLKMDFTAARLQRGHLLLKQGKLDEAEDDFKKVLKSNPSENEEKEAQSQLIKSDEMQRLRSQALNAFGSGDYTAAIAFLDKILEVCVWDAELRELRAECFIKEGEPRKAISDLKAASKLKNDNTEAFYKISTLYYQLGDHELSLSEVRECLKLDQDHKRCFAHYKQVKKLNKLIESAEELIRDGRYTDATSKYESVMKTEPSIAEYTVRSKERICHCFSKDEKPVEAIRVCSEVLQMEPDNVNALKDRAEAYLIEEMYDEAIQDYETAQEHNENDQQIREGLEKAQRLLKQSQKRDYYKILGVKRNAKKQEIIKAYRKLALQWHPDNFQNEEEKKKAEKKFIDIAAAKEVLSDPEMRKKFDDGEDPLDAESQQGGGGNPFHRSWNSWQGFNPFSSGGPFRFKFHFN
Assay: BLI

B1: C-terminally His tagged NP (natural protein)
chain: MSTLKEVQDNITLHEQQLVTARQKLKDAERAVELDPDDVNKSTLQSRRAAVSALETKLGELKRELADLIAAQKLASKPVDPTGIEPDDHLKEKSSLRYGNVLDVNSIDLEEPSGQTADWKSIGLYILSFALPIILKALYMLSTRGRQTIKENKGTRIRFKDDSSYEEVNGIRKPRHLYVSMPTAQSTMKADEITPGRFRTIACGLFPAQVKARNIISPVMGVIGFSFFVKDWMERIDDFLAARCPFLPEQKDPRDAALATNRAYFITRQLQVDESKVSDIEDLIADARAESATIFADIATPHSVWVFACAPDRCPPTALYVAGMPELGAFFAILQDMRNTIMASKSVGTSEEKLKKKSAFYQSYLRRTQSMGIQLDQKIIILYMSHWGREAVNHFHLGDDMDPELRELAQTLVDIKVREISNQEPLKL
- koff: 0.0119 s⁻¹
